Source: US20070265201A1, “INHIBITORS OF INFLAMMATORY CYTOKINE TRANSCRIPTION DERIVED FROM HCMV PROTEIN IE2” (priority 2005, published 2007)

Test system: HeLa-S3 cells
Test: Localization of GFP-IE2 fragment fusion protein after transfection
Assay type: cell-based
Conditions: 24 hours post transfection, HeLa-S3, FIG. 4A

B1: GFP 291-364 (protein)
chain: SSHHGRGGFGGAASSSLLSCGHQSSGGASTGPRKKKSKRISELDNEKVRNIMKDKNTPFCTPNVQTRRGRVKID
modifications: left off: large carriers
  subcellular localization of GFP fusion protein: found in both the cytoplasm and nucleus
